{"source": "PubChem BioAssay AID1159524", "about": "(National Center for Advancing Translational Sciences (NCATS), 2015)", "note": "The entries are a selection whose mix differs from that of the whole data set. Records with an inconclusive call do not appear. Some salts or complexes appear as unconnected parts, following the source record. The source made the active and inactive calls. The call rests on the fitted dose curve; tested in HEK293T cells. On the % scale 0 is the no-effect control and ±100 the full control effect."}
{"experiment": "High Throughput Screening for Foot and Mouth Disease Virus Antivirals; further: read-out not given here; nearly all actives have a fitted effect of over 45% in size", "conditions": "FMDV antiviral cell-based qHTS; at 57.9 µM (top of the series)"}
{"smiles": "Cn1c(=O)[nH]cc(N(CCCl)CCCl)c1=O", "activity change, negative = inhibition": "inactive: -1.06%"}
{"smiles": "Cc1ccc(Nc2c([N+](=O)[O-])cc([N+](=O)[O-])cc2[N+](=O)[O-])cc1", "activity change, negative = inhibition": "inactive: -10.1%"}
{"smiles": "O=C(O)c1cccc(Nc2c([N+](=O)[O-])cc([N+](=O)[O-])cc2[N+](=O)[O-])c1", "activity change, negative = inhibition": "inactive: -13.9%"}
{"smiles": "N/C(=N\\O)c1c(N)no[n+]1[O-]", "activity change, negative = inhibition": "inactive: 0.253%"}
{"smiles": "Cc1cc(N(CCCl)CCCl)ccc1C=O", "activity change, negative = inhibition": "inactive: -15.9%"}
{"smiles": "CCOC(=O)C(CC)C1=NC(C)(C)Cc2ccccc21.O=[N+]([O-])c1cc([N+](=O)[O-])c(O)c([N+](=O)[O-])c1", "note": "(stereo unspecified)", "activity change, negative = inhibition": "inactive: -25.6%"}
{"smiles": "COc1ccc2c(c1O)-c1c(O)c(OC)cc3c1[C@H](C2)[N+](C)(C)CC3.O=[N+]([O-])c1cc([N+](=O)[O-])c([O-])c([N+](=O)[O-])c1[O-]", "activity change, negative = inhibition": "inactive: -2.25%"}
{"smiles": "O=C(OC1CN2CCC1CC2)c1ccc([N+](=O)[O-])cc1", "note": "(stereo unspecified)", "activity change, negative = inhibition": "inactive: -3.1%"}
{"smiles": "O=[N+]([O-])c1cc([N+](=O)[O-])c(OC2CCCCC2O)c([N+](=O)[O-])c1", "note": "(stereo unspecified)", "activity change, negative = inhibition": "inactive: -12.8%"}
{"smiles": "O=C1C(O)=C([N+](=O)[O-])C(=O)C(O)=C1[N+](=O)[O-]", "activity change, negative = inhibition": "inactive: 14.3%"}
{"smiles": "O=P1(N(CCCl)CCCl)SCCCS1", "activity change, negative = inhibition": "inactive: 0.687%"}
